In the assay the test system is Malassezia globosa. The assay is described as follows: Potency index, ratio of acetazolamide Ki to compound Ki for Malassezia globosa beta carbonic anhydrase.
Consider `Nc1ccc(S(=O)(=O)N[N+](=O)[O-])cc1`, for which the Ratio Ki was determined as 10. In the case of `Nc1cc(S(=O)(=O)N[N+](=O)[O-])cc([N+](=O)[O-])c1O`, the Ratio Ki came to 10.

As for `Nc1ccccc1S(=O)(=O)N[N+](=O)[O-]`, the Ratio Ki came to 10.

These data come from ChEMBL document CHEMBL3817799, “N-Nitrosulfonamides: A new chemotype for carbonic anhydrase inhibition” (Bioorg Med Chem, 2016).
